According to paper PMC7363885, “Fluorescent artificial receptor-based membrane assay (FARMA) for spatiotemporally resolved monitoring of biomembrane permeability” (Communications Biology, 2020):

test system: FAR-1; assay: Fluorescence titration, FAR•analyte complex formation in homogeneous solution; format: binding; conditions: 10 mM HEPES buffer (pH 7)
Description: Fluorescence titrations were carried out in aqueous HEPES buffer (10 mM, pH 7, 22 °C) unless stated otherwise. To a solution of the FAR (typically at 10–30 μM) was stepwise added a solution of the analyte (typically up to 2 mM) and the fluorescence spectra were recorded. The normalized emissions at 450 nm (FAR-1) or at 370 nm (FAR-2) were fitted with an equation for a 1 : 1 binding by a least-square fit. The resulting affinity constants are reported in Supplementary Table 1. Representative titration plots are shown in Supplementary Fig. 1. Note that the high CB8-dye binding affinities correspond to a near quantitative degree of host-dye complexation, i.e., quantitative formation of the FAR, such that the subsequent binding of the analyte can be treated independently.

| SMILES | QE (quenching efficiency) |
| --- | --- |
| N[C@@H](Cc1ccccc1)C(=O)O [Phe, phenylalanine] | 0.5 |
| CCc1ccc(O)cc1 [4Et-phenol, 4-ethylphenol] | 0.6 |
| O=C1CCC(=O)N1c1ccccc1 [N-phenylsuccinimide] | > 0.9 |
| CCOc1ccc(O)cc1 [4-ethoxyphenol] | > 0.9 |
| OC[C@H]1O[C@@H](Oc2ccccc2)[C@H](O)[C@@H](O)[C@H]1O [phenyl-β-D-galactopyranoside] | > 0.9 |
| CNC(=C[N+](=O)[O-])NCCSCc1ccc(CN(C)C)o1 [Ranitidine, ranitidine, reference compound] | 0.2 |
| NC(=O)C(N)Cc1c[nH]c2ccccc12 (stereo not shown) [TrpNH2, tryptophanamide] | > 0.9 |
| CC(=O)Nc1ccc(O)cc1 [paracetamol, reference compound] | > 0.9 |
| c1ccc2ncccc2c1 [quinoline] | 0.6 |
| NCCc1ccc(O)c(O)c1 [dopamine] | > 0.9 |
| Oc1ccc(O)cc1 [1,4-dihydroxybenzene] | > 0.9 |
| COC(=O)[C@@H](N)Cc1c[nH]c2ccccc12 [TrpOMe, tryptophan methyl ester] | > 0.9 |
| N[C@@H](Cc1c[nH]c2ccc(O)cc12)C(=O)O [5HO-Trp, 5-hydroxy tryptophan] | > 0.9 |
| c1ccc2[nH]cnc2c1 [benzimidazole] | 0.8 |
| O=C(O)C(=O)Cc1ccc(O)cc1 [4-hydroxyphenylpyruvic acid] | > 0.9 |
| N[C@@H](Cc1c[nH]c2ccccc12)C(=O)O [Trp, tryptophan] | > 0.9 |
| Oc1ccccc1O [1,2-dihydroxybenzene] | > 0.9 |
| c1ccc2ccccc2c1 [naphthalene] | > 0.9 |
| CC(=O)NC(Cc1c[nH]c2ccccc12)C(=O)O (stereo not shown) [NAc-Trp] | > 0.9 |
